Measured values from several laboratories, pooled; numbers as filed in NIAID ChemDB.

Common to all: whole-cell or culture tests; agent: HIV-1

An empty or dashed field is not shown. Conditions beyond the fields shown may differ between rows. ECn is the concentration giving n% inhibition of infection, replication or growth.

| smiles | read by | mutations | conditions | strain or isolate | read-out | cells | result |
|---|---|---|---|---|---|---|---|
| CC(C)(C)c1ccc(C(=O)N/N=C/c2c(O)ccc3ccccc23)cc1 | cytopathic effect |  |  | IIIB | EC50 | MT-4 | 5 µM |
| CCCC1=[N+](Cc2ccccc2)CCc2cc(OCc3ccccc3)c(OCc3ccccc3)cc21 | p24 |  |  | IIIB | EC50 | H9 | >0.197 µg/mL |
| CC1=NN(c2nc(N)nc(CSc3cc(Cl)c(C)cc3S(N)(=O)=O)n2)C(C)(C)C1 | cytopathic effect / XTT |  |  | RF | EC50 | CEM | >75.3 µM |
| Cc1ccc(-c2ccc3c(c2)C=C(C(=O)Nc2ccc(C[N+](C)(C)C4CCOCC4)cc2)CCC3)cc1 | β-galactosidase |  |  | BaL | EC50 | MAGI + MAGI-CCR5 | 0.0012 µM |
| CCCCC(Sc1cc(Cl)c(C)cc1S(=O)(=O)Nc1n[nH]c(N)n1)C(=O)OC | cytopathic effect / XTT |  |  | RF | EC50 | CEM | >112 µM |
| Cc1cn([C@H]2C[C@H](N=[N+]=[N-])[C@@H](CO)O2)c(=O)[nH]c1=O | MTT |  |  | IIIB | EC50 | MT-4 | 0.007 µM |
| CC(C)CN(C[C@@H](O)[C@H](Cc1ccccc1)NC(=O)O[C@H]1CCOC1)S(=O)(=O)c1ccc(N)cc1 | p24 / luminescence | L23I E34Q K43I M46I I50L G51A L63P A71V V82A T91A |  | NL4-3 | EC50 | MT-4 | 0.39 µM |
| CCCN(C(=O)OCc1ccccc1)C1CCN(CCC(CN(C)S(=O)(=O)c2ccccc2)c2ccccc2)CC1 |  |  |  | BaL | EC50 | MAGI + MAGI-CCR5 | >0.3 µM |
| C=C[C@@]1(C)CC[C@](C)(C(C)C)c2cc3c4c(c[nH]c4c21)C[C@@H](CO)NC(=O)[C@H](C(C)C)N3C | cytopathic effect / MTT |  |  | IIIB | EC50 | MT-4 | 0.00006 µg/mL |
| COc1cc(Cc2c3cc(OC)c(OC)cc3cc(C)[n+]2C)c(C(C)=O)cc1OC | p24 |  |  | IIIB | EC50 | H9 | >20.6 µg/mL |
| Cc1ccc2nnc(NS(=O)(=O)c3cc(C)c(Cl)cc3S)n2n1 | cytopathic effect / XTT |  |  | RF | EC50 | CEM | >200 µM |
| CCCN(C(=O)OCc1ccc([N+](=O)[O-])cc1)C1CCN(CC[C@](CO)(CN(C)S(=O)(=O)c2ccccc2)c2ccccc2)CC1 | p24 |  |  | YU-2 (M-tropic) | EC95 | PBMC | 0.1 µM |
| Cc1cc(C#N)cc(C)c1Oc1nc(N/N=C/c2ccc(C#N)cc2)nc2ccsc12 | MTT | K103N/Y181C |  | RES056 | EC50 | MT-4 | >58.9 µM |
| CCCCCCCCCCCCCC(=O)OC[C@@H](COP(=O)(O)OC[C@@H]1CC[C@H](n2cnc3c(N)ncnc32)O1)OC(=O)CCCCCCCCCCCCC | ELISA |  |  | LAV-Bru | EC50 | CEM13 + CEM | <10 µM |
| Cc1cc(C#N)cc(C)c1Oc1nc(N/N=C/c2ccc(C#N)cc2F)nc2ccsc12 | MTT | K103N/Y181C |  | RES056 | EC50 | MT-4 | >56.5 µM |
| CCCCCCCCCCc1ccc2c(c1)N(C)[C@@H](C(C)C)C(=O)N[C@H](CO)C2 | cytopathic effect / MTT |  |  | IIIB | EC50 | MT-4 | 0.0063 µg/mL |
| CCN(C(=O)OCc1ccc([N+](=O)[O-])cc1)C1CCN(CC[C@](C)(CN(C)S(=O)(=O)c2ccccc2)c2ccccc2)CC1 | p24 |  |  | YU-2 (M-tropic) | EC50 | PBMC | <0.1 µM |
| OC[C@@H]1CC[C@H](n2cnc3c(Cl)ncnc32)O1 | cytopathic effect / trypan blue |  |  | IIIB | EC50 | ATH9 + ATH8 | <20 µM |
| COc1cc2c(O[C@@H]3OC[C@](O)(COC(C)=O)[C@H]3O)c3c(c(-c4ccc5c(c4)OCO5)c2cc1OC)C(=O)OC3 | luciferase |  | pseudotyped | NL4-3 | EC50 | A549 | 0.569 µM |
| CCCCCCCCCCCCCC(=O)OC[C@H](COP(=O)(O)OC[C@@H]1CC[C@H](n2cnc3c(=O)[nH]c(N)nc32)O1)OC(=O)CCCCCCCCCCCCC | ELISA |  |  | IIIB | EC50 | MT-4 | <10 µM |
| CC[C@H](C)[C@H](NC(=O)[C@H](CCC(N)=O)NC(=O)[C@@H]1CCCN1N)C(=O)N[C@H](C(=O)N[C@@H](CC(C)C)C(=O)N[C@@H](Cc1c[nH]c2ccccc12)C(=O)O)[C@@H](C)O | MTT |  |  |  | EC50 |  | >125 µg/mL |
| CCCCCCCCCCc1ccc2c(c1)N(C)[C@@H](C(C)C)C(=O)N[C@@H](CO)CC2 | cytopathic effect / MTT |  |  | IIIB | EC50 | MT-4 | 0.3 µg/mL |
| Cc1cc(C#N)cc(C)c1Oc1nc(N/N=C/C2CCN(Cc3ccc(S(C)(=O)=O)cc3)CC2)nc2ccsc12 | MTT |  |  | IIIB | EC50 | MT-4 | >4.62 µM |
| CCCN(C(=O)OCc1cccc(C)c1)C1CCN(CCC(CN(C)S(=O)(=O)c2ccccc2)c2ccccc2)CC1 | p24 |  |  | YU-2 (M-tropic) | EC50 | PBMC | <1 µM |
| CC(C)[C@H]1C(=O)N[C@H](CO)Cc2c[nH]c3cccc(c23)N1C | cytopathic effect / MTT |  |  | IIIB | EC50 | MT-4 | 0.013 µg/mL |
| COc1ccc2c(c1)c(CC(=O)O)c(C)n2C(=O)c1ccc(Cl)cc1 | XTT / p24 |  |  | IIIB | EC50 | MT-4 | 10 µM |
| C#CCN(C(=O)OCc1ccccc1)C1CCN(CCC(C)(CN(C)S(=O)(=O)c2ccccc2)c2ccccc2)CC1 | p24 |  |  | YU-2 (M-tropic) | EC50 | PBMC | <1.5 µM |
| Nc1nc2c(ncn2[C@H]2CC[C@@H](CO)O2)c(=O)[nH]1 | cytopathic effect / trypan blue |  |  | IIIB | EC50 | MT-2 | >50 µM |
| C=C(COCCc1ccccc1)[C@@H]1CC[C@]2(C(=O)NC(CC(C)C)C(=O)O)CC[C@]3(C)[C@H](CC[C@@H]4[C@@]5(C)CC[C@H](O)C(C)(C)[C@@H]5CC[C@]43C)[C@@H]12.CCl | p24 / ELISA / antigen |  |  | IIIB | EC50 | MT-2 | 27.8 µM |
| COc1ccc2cc([C@H](C)C(=O)O)ccc2c1 | XTT / p24 |  |  | IIIB | EC50 | MT-4 | >100 µM |
| C=CCN(C(=O)OCc1ccccc1)C1CCN(CC[C@](C)(CN(C)S(=O)(=O)c2ccccc2)c2ccccc2)CC1 | p24 |  |  | YU-2 (M-tropic) | EC95 | PBMC | ~0.075 µM |
| Cc1cc(C(F)(F)F)cc(-n2nc(NS(=O)(=O)c3cc(C)c(Cl)cc3S)nc2N)n1 | cytopathic effect / XTT |  |  | RF | EC50 | CEM | >149 µM |
| CC(C)=CCN1c2cc(Cl)cc3[nH]c(=S)n(c23)C[C@@H]1C |  | RT-D67N K70R T215Y K219Q |  |  | EC95 | MT-4 | 0.05 µM |
| CC(C)(C)NC(=O)[C@@H]1C[C@@H]2CCCC[C@@H]2CN1C[C@@H](O)[C@H](Cc1ccccc1)NC(=O)[C@H](CC(N)=O)NC(=O)c1ccc2ccccc2n1 | RT activity |  | clinical isolate | ROJO | EC50 | PBMC | 0.009 µM |
| Cc1cn([C@H]2C[C@@H](CO)[C@@H](COC(c3ccccc3)(c3ccccc3)c3ccccc3)O2)c(=O)[nH]c1=O | RT activity |  |  | LAV | EC50 | PBMC | 3.3 µM |
| Nc1nc(N)c2ncn([C@H]3CC[C@@H](CO)O3)c2n1 | cytopathic effect / trypan blue |  |  | IIIB | EC50 | ATH8 | <200 µM |
| CC(C)[C@H]1C(=O)N[C@H](CO)CCc2ccccc2N1C | cytopathic effect / MTT |  |  | IIIB | EC50 | MT-4 | >10 µg/mL |
| Cc1c2cc(O)c(O)cc2cc[n+]1C | p24 |  |  | IIIB | EC50 | H9 | >2.15 µg/mL |
| CCCCCCCCCCc1ccc2c(c1)N(C)C(C(C)C)C(=O)NC(CO)C2 | cytopathic effect / MTT |  |  | IIIB | EC50 | MT-4 | 0.32 µg/mL |
| CCCCCCCCCCCCCC(=O)OC[C@@H](COP(=O)(O)OC[C@@H]1CC[C@H](n2ccc(N)nc2=O)O1)OC(=O)CCCCCCCCCCCCC | ELISA |  |  | IIIB | EC50 | MT-4 | <10 µM |
| CCC[C@@]1(CCc2ccccc2)CC(O)=C([C@H](CC)c2cccc(NS(=O)(=O)c3ccc(C(F)(F)F)cn3)c2)C(=O)O1 | p24 / luminescence | L10F V32I M46I I54M A71V I84V |  | NL4-3 | EC50 | MT-4 | >1 µM |
| CCCOc1cc2cc[n+](C)c(CC)c2cc1OCCC | p24 |  |  | IIIB | EC50 | H9 | 4.98 µg/mL |
| COC(=O)N[C@H](C(=O)N[C@@H](Cc1ccccc1)[C@@H](O)CN(Cc1ccc(-c2ccccn2)cc1)NC(=O)[C@@H](NC(=O)OC)C(C)(C)C)C(C)(C)C | p24 / luminescence | L23I E34Q K43I M46I I50L G51A L63P A71V V82A T91A |  | NL4-3 | EC50 | MT-4 | >1 µM |
| Nc1ncnc2c1ncn2[C@H]1CC[C@@H](CO)O1 | cytopathic effect / trypan blue |  |  | IIIB | EC50 | ATH8 | <20 µM |
| Cc1cc(S(=O)(=O)Nc2nnc3c4ccccc4ccn23)c(S)cc1Cl | cytopathic effect / XTT |  |  | RF | EC50 | CEM | 143.5 µM |
| Cc1cc(C#N)cc(C)c1Oc1nc(N/N=C/C2CCN(Cc3ccc(C(N)=O)cc3)CC2)nc2ccsc12 | MTT |  |  | IIIB | EC50 | MT-4 | >4.65 µM |
| Cc1cn([C@H]2C[C@H](N=[N+]=[N-])[C@@H](CO)O2)c(=O)[nH]c1=O | MTT | E138K |  |  | EC50 | MT-4 | 0.036 µM |
| Cc1cc(C#N)cc(C)c1Oc1nc(N/N=C/C2CCN(Cc3ccc(S(=O)(=O)N4CCOCC4)cc3)CC2)nc2ccsc12 | MTT |  |  | IIIB | EC50 | MT-4 | >14.5 µM |
| Cc1cc(S(=O)(=O)Nc2nc(N)nc(N(C)C)n2)c(SC(C(=O)O)c2ccccc2)cc1Cl | cytopathic effect / XTT |  |  | RF | EC50 | CEM | >200 µM |
| C#C[C@]1(CO)O[C@@H](n2cnc3c(N)nc(F)nc32)C[C@@H]1O |  |  |  | WT | EC50 |  | 0.0002 µM |
| Cc1cc2nc3nc(N)nc(NS(=O)(=O)c4cc(C)c(Cl)cc4S)n3c2cc1C | cytopathic effect / XTT |  |  | RF | EC50 | CEM | 58.5 µM |
| Cc1cc(C#N)cc(C)c1Oc1nc(N/N=C/c2ccc(C#N)c(F)c2)nc2ccsc12 | MTT |  |  | IIIB | EC50 | MT-4 | 0.0257 µM |
| COc1cc(-c2cc(=O)c3c(O)c(OC)c(OC)cc3o2)c(O)cc1O | p24 / ELISA |  |  | IIIB | EC50 | H9 | 17.3 µg/mL |
| Cc1cn([C@H]2C[C@@H](CO)[C@@H](CO)O2)c(=O)[nH]c1=O | RT activity |  |  | LAV | EC50 | PBMC | 87.7 µM |
| Cc1nccc2cc(O)c(O)cc12 | p24 |  |  | IIIB | EC50 | H9 | >2.22 µg/mL |
| Nc1nc2c(ncn2[C@H]2CC[C@@H](CO)O2)c(=O)[nH]1 | ELISA |  |  | IIIB | EC50 | MT-4 | <10 µM |
| Cc1cc(S(=O)(=O)Nc2n[nH]c(N)n2)c(SCc2nc(N)nc(N(C)C)n2)cc1Cl | cytopathic effect / XTT |  |  | RF | EC50 | CEM | >200 µM |

Repeating the final 4 entries:

smiles,read by,mutations,conditions,strain or isolate,read-out,cells,result
Cc1cn([C@H]2C[C@@H](CO)[C@@H](CO)O2)c(=O)[nH]c1=O,RT activity,,,LAV,EC50,PBMC,87.7 µM
Cc1nccc2cc(O)c(O)cc12,p24,,,IIIB,EC50,H9,>2.22 µg/mL
Nc1nc2c(ncn2[C@H]2CC[C@@H](CO)O2)c(=O)[nH]1,ELISA,,,IIIB,EC50,MT-4,<10 µM
Cc1cc(S(=O)(=O)Nc2n[nH]c(N)n2)c(SCc2nc(N)nc(N(C)C)n2)cc1Cl,cytopathic effect / XTT,,,RF,EC50,CEM,>200 µM